Compound potency records, mixed from different reports. Data source: NIAID ChemDB in PubChem.

Common to all: host cell toxicity; cells: PBMC; measure: CC50

Rows are shuffled and stem from different studies. Blank or dashed fields: not listed here. CCn is the concentration with n% toxicity to the cells.

compound	read by	result
Nc1ncnc2c([C@H]3CC[C@](/C=C/P(=O)(O)O)(C(F)(F)F)C3)c[nH]c12	MTT	>100 µM
CC[C@H](C)[C@H](N)C(=O)O.[Na+]	MTT	73.36 µM
CC1(C)CC[C@]2(C(=O)O)CC[C@]3(C)C(=CC[C@@H]4[C@@]5(C)CC[C@H](O[C@@H]6OC[C@@H](O)[C@H](OC7O[C@H](CO)[C@H](O)[C@H](O)[C@H]7O)[C@H]6O)C(C)(C)[C@@H]5CC[C@]43C)[C@@H]2C1	MTT	5.86 µg/mL
Cc1cc2c(C(C)C)c(O)c(O)c(C=NCCS(=O)(=O)O)c2c(O)c1-c1c(C)cc2c(C(C)C)c(O)c(O)c(C=NCCS(=O)(=O)O)c2c1O		>100 µM
Nc1ncnc2c1ncn2CCOCP(=O)(O)O	MTT	>100 µM
Cc1cc2c(C(C)C)c(O)c(O)c(C=Nc3ccccc3)c2c(O)c1-c1c(C)cc2c(C(C)C)c(O)c(O)c(C=Nc3ccccc3)c2c1O		>100 µM
CCOP(=O)(OCC)C(F)(F)C[C@@]1(F)CO[C@@H](n2cnc3c(Cl)nc(N)nc32)C1		>100 µM
Cc1cc(C)cc(Cn2c(=O)c(C)cn(Cc3ccccc3)c2=O)c1		58 µM
Oc1cc(O)cc(-c2c3nc(c(-c4cc(O)cc(O)c4)c4ccc([nH]4)c(-c4cc(O)cc(O)c4)c4nc(c(-c5cc(O)cc(O)c5)c5ccc2[nH]5)C=C4)C=C3)c1		>100 µM
Nc1ncnc2c1ncn2CCOCP(=O)(O)O		>100 µM
Cc1cc2c(C(C)C)c(O)c(O)c(C=N)c2c(O)c1-c1c(C)cc2c(C(C)C)c(O)c(O)c(C=N)c2c1O		>100 µM
O=C(CO)N[C@@H]([C@@H](O)[C@H](O)[C@H](O)CO)[C@@H](O)C(=O)C(=O)O		>1000 µM
C#CCn1ccc(=O)n(Cc2cc(C)cc(C)c2)c1=O		295 µM
Nc1ccc(-c2c3nc(c(-c4ccc(N)cc4)c4ccc([nH]4)c(-c4ccc(N)cc4)c4nc(c(-c5ccc(N)cc5)c5ccc2[nH]5)C=C4)C=C3)cc1		>200 µM
Nc1nc2c(ncn2[C@@H]2OC[C@](CO)(CCP(=O)(O)O)[C@@H]2F)c(=O)[nH]1	MTT	>100 µM
O=c1[nH]cnc2c1ncn2[C@@H]1O[C@H](CO)C=C1F		92.7 µM
CC1=CC2=C(C(C)C)C(O)C(=O)/C(=C\N[C@@H](C(=O)O)C(C)C)C2C(O)=C1c1c(C)cc2c(C(C)C)c(O)c(O)c(C=N[C@H](C(=O)O)C(C)C)c2c1O.[Na+].[Na+]	MTT	70.67 µM
Nc1ccn([C@H]2CC[C@@H](CO)O2)c(=O)n1		>100 µM
CC[C@@H](C)[C@@H](N/C=C1\C(=O)C(O)C(C(C)C)=C2C=C(C)C(c3c(C)cc4c(C(C)C)c(O)c(O)c(C=N[C@H](C(=O)O)[C@@H](C)CC)c4c3O)=C(O)C21)C(=O)O.[Na+].[Na+]	MTT	73.36 µM
COc1ccc(C2CNC(=O)C2)cc1OC1CCCC1		>>100 µM
Cc1cn([C@H]2C[C@H](N=[N+]=[N-])[C@@H](CO)O2)c(=O)nc1N		>200 µM
Fc1ccccc1CCNC(=S)Nc1ccc(Br)cn1		>100 µM
CCOC(=O)c1cccc(Cn2ccc3ccc(-c4ccc5ccn(Cc6cccc(C(=O)O)c6)c5c4)cc32)c1	MTS	>50 µM
CC(C)(C)NC(=O)[C@H]1N(C(=O)[C@@H](O)[C@H](Cc2ccccc2)NC(=O)[C@H](CC(N)=O)NC(=O)COc2cccc3ccccc23)CSC1(C)C		32 µM
CC1=CC(=O)c2c(ccc(-c3ccc4c(c3O)C(=O)C=C(C)C4=O)c2O)C1=O		>125 µg/mL
O=c1[nH]cnc2c1ncn2[C@@H]1O[C@@H](CO)C=C1F		>100 µM
c1cc(CN2CCCNCCNCCCNCC2)ccc1CN1CCCNCCNCCCNCC1		>1.68 µg/mL
CC(C)(C)NC(=O)[C@@H]1CSCN1C(=O)[C@@H](O)[C@H](Cc1ccccc1)NC(=O)[C@H](CC(N)=O)NC(=O)COc1cccc2ccccc12		77 µM
CCCN(C)C(=O)Oc1nsnc1-c1c(Cl)ccc(N)c1Cl		53 µM
CCOP(=O)(CO[C@H]1C[C@@H](n2cnc3c(N)nc(F)nc32)C(F)(F)C1)OCC		>100 µM
CC(C)(C)c1cc(-c2c3nc(c(-c4cc(C(C)(C)C)c(O)c(C(C)(C)C)c4)c4ccc([nH]4)c(-c4cc(C(C)(C)C)c(O)c(C(C)(C)C)c4)c4nc(c(-c5cc(C(C)(C)C)c(O)c(C(C)(C)C)c5)c5ccc2[nH]5)C=C4)C=C3)cc(C(C)(C)C)c1O		>100 µM
Cc1ccc(Cn2c(=O)ccn(CC#N)c2=O)cc1C		434 µM
CCCC(=O)c1c(O)c(CC2(C)C(=O)C(C(=O)C(C)CC)=C(O)C(C)=C2O)c(O)c(C)c1OC		>100 µM
CNC(=O)[C@H](Cc1ccccc1)NC(=O)OC[C@H]1O[C@@H](n2cc(C)c(=O)[nH]c2=O)C[C@@H]1N=[N+]=[N-]		>100 µM
CC1=C(O)c2cccc(O)c2C(=O)C1=O		>125 µg/mL
C[C@H](Cn1cnc2c(N)ncnc21)OCP(=O)(O)O		1200 µM
S=C(NCCN1CCNCC1)Nc1ccc(Br)cn1		>100 µM
CCCCCCCCCCCCCCCC(=O)OCC(CO)(CO)NC(=O)CNC(=O)CCCc1ccc(C(CCCl)CCCl)cc1		7.1 µM
C[C@H]1CC(=O)c2c(O)cccc2[C@H]1O		>125 µg/mL
CCOCn1c([Se]c2ccccc2)c(F)c(=O)[nH]c1=O		>100 µM
Nc1ccn([C@H]2C[C@@](F)(CC(F)(F)P(=O)(O)O)CO2)c(=O)n1		>100 µM
Cc1cc(SC2=C(O)CC(CCc3ccc(O)cc3)(C(C)C)OC2=O)c(C(C)(C)C)cc1OS(C)(=O)=O		>100 µM
O=c1[nH]cnc2c1ncn2[C@H]1O[C@@H](CO)C=C1F		>100 µM
Cn1c(O)c(C2=c3ccccc3=NC2=O)c2ccccc21		>100 µM
CN(C)c1ccc(-c2c3nc(c(-c4ccc(N(C)C)cc4)c4ccc([nH]4)c(-c4ccc(N(C)C)cc4)c4nc(c(-c5ccc(N(C)C)cc5)c5ccc2[nH]5)C=C4)C=C3)cc1		>100 µM
Cc1cn([C@H]2C[C@H](N=[N+]=[N-])[C@@H](CO)O2)c(=O)[nH]c1=O		>100 µM
COC(=O)[C@H](C)NP(=O)(OC[C@H]1O[C@@H](n2cc(C)c(=O)[nH]c2=O)C[C@@H]1N=[N+]=[N-])Oc1ccc(Br)cc1		>100 µM
CC(C)OC(=O)OCOP(=O)(CO[C@H](C)Cn1cnc2c(N)ncnc21)OCOC(=O)OC(C)C	visual reading	14.56 µM
COc1ccc(-c2c3nc(c(-c4ccc(OC)c(OC)c4)c4ccc([nH]4)c(-c4ccc(OC)c(OC)c4)c4nc(c(-c5ccc(OC)c(OC)c5)c5ccc2[nH]5)C=C4)C=C3)cc1OC		>100 µM
COC(=O)[C@@H](Cc1ccccc1)NC(=O)OC[C@H]1O[C@@H](n2cc(C)c(=O)[nH]c2=O)C[C@@H]1N=[N+]=[N-]		>100 µM
COc1cc(OC)cc(-c2c3nc(c(-c4cc(OC)cc(OC)c4)c4ccc([nH]4)c(-c4cc(OC)cc(OC)c4)c4nc(c(-c5cc(OC)cc(OC)c5)c5ccc2[nH]5)C=C4)C=C3)c1		>100 µM
CC(C)OC(=O)[C@H](C)N[P@](=O)(CO[C@H](C)Cn1cnc2c(N)ncnc21)Oc1ccccc1	visual reading	1.32 µM
Nc1ncnc2c1ncn2[C@@H]1OC[C@@](/C=C/P(=O)(O)O)(CO)[C@@H]1F	MTT	>100 µM
Oc1ccc(-c2c3nc(c(-c4ccc(O)cc4)c4ccc([nH]4)c(-c4ccc(O)cc4)c4nc(c(-c5ccc(O)cc5)c5ccc2[nH]5)C=C4)C=C3)cc1		>100 µM
O=c1ccn([C@H]2C[C@@](F)(CC(F)(F)P(=O)(O)O)CO2)c(=O)[nH]1		90 µM
Cc1cc(C)nc(Cn2c(=O)ccn(Cc3c(F)cccc3F)c2=O)c1		144 µM
Nc1ncnc2c1ncn2CCOCP(=O)(O)O		>100 µM
Cc1ccc2c(c1)c(=O)c(C(=O)Nc1ccc(Cl)cc1)cn2[C@@H]1O[C@H](CO)[C@@H](O)[C@H]1O	XTT	>1000 µg/mL
CC12C(=O)c3cccc(O)c3C(=O)C1CC13OC12C(=O)c1c(O)cccc1C3=O		>125 µg/mL
CCC(Cc1ccccc1)c1cc(O)c(C(CC)c2ccccc2)c(=O)o1		20 µM
Cc1cc(Cl)nc(C)c1C(=O)NCC[C@@H](C)N1CCC(N(Cc2ccsc2)C(=O)NCCCC(=O)O)CC1	MTS	>35.5 µM
Cc1cc2c(C(C)C)c(O)c(O)c(C=O)c2c(O)c1-c1c(C)cc2c(C(C)C)c(O)c(O)c(C=O)c2c1O	MTT	12.86 µM
CC(C)Nc1cccnc1N1CCN(C(=O)c2cc3cc(NS(C)(=O)=O)ccc3[nH]2)CC1		>100 µM
Cc1ccccc1Cn1c(=O)ccn(CC#N)c1=O		>490 µM
COc1cccc(-c2c3nc(c(-c4cccc(OC)c4)c4ccc([nH]4)c(-c4cccc(OC)c4)c4nc(c(-c5cccc(OC)c5)c5ccc2[nH]5)C=C4)C=C3)c1		>100 µM
COC(=O)[C@H](Cc1c[nH]c2ccccc12)NC(=O)OC[C@H]1O[C@@H](n2cc(C)c(=O)[nH]c2=O)C[C@@H]1N=[N+]=[N-]		>100 µM
Nc1nc2c(ncn2[C@@H]2O[C@H](CO)C=C2F)c(=O)[nH]1		>100 µM
CC(=O)Oc1c(OC(C)=O)c2c3c(c(-c4c(C)cc5c(C(C)C)c(OC(C)=O)c(OC(C)=O)c6c5c4OC6OC(C)=O)c(C)cc3c1C(C)C)OC2OC(C)=O		>100 µM
COc1ccccc1-c1c2nc(c(-c3ccccc3OC)c3ccc([nH]3)c(-c3ccccc3OC)c3nc(c(-c4ccccc4OC)c4ccc1[nH]4)C=C3)C=C2		200 µM
CS(=O)CCCCN=C=S	MTT	10.4 µM
CCCCCCCCCCCCCCCCCCCCCCOCC(C)(COCCCCCCCCCCCCCCCCCCCCCC)CO[C@]1(C(=O)O)C[C@H](OS(=O)(=O)O)[C@@H](NC(C)=O)[C@H]([C@H](OS(=O)(=O)O)[C@@H](COS(=O)(=O)O)OS(=O)(=O)O)O1		>200 µM
CCOCn1c([Se]c2ccccc2)c(CC)c(=O)[nH]c1=O		>100 µM

Again, the opening 5 rows:

compound | read by | result
Nc1ncnc2c([C@H]3CC[C@](/C=C/P(=O)(O)O)(C(F)(F)F)C3)c[nH]c12 | MTT | >100 µM
CC[C@H](C)[C@H](N)C(=O)O.[Na+] | MTT | 73.36 µM
CC1(C)CC[C@]2(C(=O)O)CC[C@]3(C)C(=CC[C@@H]4[C@@]5(C)CC[C@H](O[C@@H]6OC[C@@H](O)[C@H](OC7O[C@H](CO)[C@H](O)[C@H](O)[C@H]7O)[C@H]6O)C(C)(C)[C@@H]5CC[C@]43C)[C@@H]2C1 | MTT | 5.86 µg/mL
Cc1cc2c(C(C)C)c(O)c(O)c(C=NCCS(=O)(=O)O)c2c(O)c1-c1c(C)cc2c(C(C)C)c(O)c(O)c(C=NCCS(=O)(=O)O)c2c1O |  | >100 µM
Nc1ncnc2c1ncn2CCOCP(=O)(O)O | MTT | >100 µM